Assay results taken from the supplement of paper PMC9931576.
Human monoclonal antibodies against the spike receptor-binding domain (heavy:light variable regions). IC50 against pseudoviruses bearing the spike of naturally observed variants; lower = stronger; >10 µg/ml means not reached at the top dose. No active / inactive call. The stated detection limit is 0.0005 µg/ml; values near or below 0.001 µg/ml lie at the floor of the assay.

B1: BD56-147 (protein)
chain 1: QVQLVQSGAEVKKPGASVKVSCKASGYTFTGHFMFWVRQAPGQGLEWMGRINPNSGGTNYAQKFQGRVTMTRDTSISTAYMELSGLRSDDTAVYYCVREPYYDILTGSEKDNWGQGTLVTVSS
chain 2: QSVLTQPPSASGTPGQRVTISCSGSSSNIGSSYVYWYQQLPGTAPKLLISSNNQRPSGVPDRFSGSKSGTSASLAISGLRSEDEADYYCAAWDDSLSGFYVFGTGTKVTVL
B2: BD56-155 (protein)
chain 1: QVQLVESGGGVVQPGRSLRLSCAASGFTFRNYGMHWVRQAPGKGLEWVAVIWYDGSNKYYADSVKGRFTVSRDNSKNALYLQMNSLRADDTAVYYCARDSDDILTGQAPSGLDVWGQGTTVTVSS
chain 2: QSVLTQPPSVSGAPGQRVTISCTGSSSNIGAGYDVHWYQQLPGTAPKLLIYGNTNRPSGVPDRFSGSKSGTSASLAITGLQAEDEADFYCQSYDTYLGGLVFGGGTRLTVL
B3: BD56-167 (protein)
chain 1: QVQLVQSGSELKKPGASVKLSCKASGFTFSDYAMIWVRQAPGQGLEWMGWINLNTGSPTYARDFTGRFVFSLDTSADTAYLQISNLKAEDTAVYYCARESRTAMDPFDYWGQGTLVTVSS
chain 2: SYVLTQPPSVSVAPGKTARITCGGTEIGSKSVHWYQQKPGQAPMLVIRYDSDRPSGIPERFSGSNSGNTATLTISRVEAGDEADYYCQVWDGSRYHHVVFGGGTKLTVL
B4: BD56-140 (protein)
chain 1: QAQLVQSGAEVGKPGASVKVSCKASGFTFTGYFIHWVRQAPGQGLEWVGWINPDSGGASYAQKFHGRVTMTRDTSISTAYMELSRLRSDDTAMYFCAREKNVGYFDFDPWGAFDLWDRGTMVTVSS
chain 2: QSALTQPASVSGSPGQSITISCTGTSSDVGTYDFVSWYQQHPGKGPKLMIYEVTKRPSGVSDRFSGSKSGNTASLTISGLQAEDEADYYCCSYAGSSRVFGGGTKLTVL
B5: BD56-166 (protein)
chain 1: EVQLVESGGGLVQPGRSLRLSCAASGFTFDDYAMHWVRQAPGKGLEWVSGISWNTESKVYADSVKGRFTISRDSAKNSLYLQMNSLRPEDTAFYYCAKDAASGTGGEYFQHWGQGTLVTVSS
chain 2: YVLTQPPSVSVAPGKTARIPCGGDNIGSKSVHWYQQKPGQAPVLVIFYDSDRPSGLPERFSGSNSGNTATLTISRVEAGDEADYYCQVWDSSSSDPVVFGGGTKLTVL
B6: BD56-151 (protein)
chain 1: QVQLVQSGAEVKKPGASVKVSCKASGYTFTSYYIHWVRQAPGQGLEWMGLINPTEGSTSYAQKVQGRVTLTRDTSTSTVYMELSSLRSEDTAVYYCARSLIAPVEDWFDPWGQGTLVTVS
chain 2: SYVLTQPPSVSVAPGKTARITCGGNNIGSKSVHWYQQRPGQAPVLVIYYDNDRPSGIPERFSGSNSGNTATLTISRVEAGDEADYYCQVWDGSGVHYVFGTGTKVTVL
B7: BD56-177 (protein)
chain 1: QVQLVQSGAGVEKPGSSVKVSCKASGGTFSTFAISWVRQVPGQGLEWVGGIIPISGSSNYAQKFRGRVTLTADASTSTVHMELSSLRAEDTAVYYCARGEDRVLTGWVNYFDSWGQGTLVTVSS
chain 2: SYVLTQPPSVSVAPGQTARITCGGNNLGSKNVHWYQQMPGQAPVLVVFDDSDRPSGIPERFSGSNSGNTATLTIARVEAGDEADYYCQVWDSTADHPPYVFGTGTRVTVL
B8: BD56-172 (protein)
chain 1: QVQLQESGPGLVKPSETLSLTCTVSGGSISSYYWNWIRQPPGKGLEWIGFVYYNGSTNYNPSLKSRVTISVDTSKSQFSLRLTSVTAADTAVYYCAGDYGDRYYYFGLDVWAQGTRVTVSS
chain 2: EIVLTQSPGTLSLSPGERATLSCRASQSVYSTYLAWYQQKAGQAPRLLIYGASSRATGIPDRFSGSGSGTDFTLTISRLEPEDFAVYFCQQYGGSRTFGQGTKVEIK
B9: BD56-178 (protein)
chain 1: QVQLVQSGAEMKKPGASVKVSCKASGYTFTTYGISWVRQAPGQGLEWMGWISAYDGHTKYAQRFQGRVTTTADTVASTAYLELRSLRSDDTAVYYCARDLFTKDYYDSSDFDYWGQGTLVTVSS
chain 2: SYELTQPSSVSVSPGQTARITCSGDVLTKKYARWFQQKPGQAPVMVIYKDNERPSGIPERFSGSSSGTTVTLTISGAQVEDEADYYCFCATDNNRLFGGGTKLTVL
B10: BD56-145 (protein)
chain 1: QVQLQESGPGLVKPSETLSLTCTVSGGSVSSGSHYWSWIRQPPGKGLEWVGFIYYSGTTNYNPSLKNRVTISLDTSKDQFSLKLNSVTAADTAVYYCARGTRGDYNTLTAFYFWYFDLWGRGTLVTVSS
chain 2: DIQMTQSPSSLSASVGDRVTITCRASQTISSHLNWYQQTPGKAPKLIIYAASTLQSGVPSTFSGSGSGTHFTLTISSLQPEDFATYYCQQSYSTPLTFGGGTKVEI
B11: BD56-158 (protein)
chain 1: QVQLQESGPGLVKPSETLSLTCTVSGGSISSYYWTWIRQPPGKGLEWIGHIYYNGSTSNNPSLKSRVTISVDTSKSQFSLKLSSVTAADTAVYYCAGYYYDSSGYDYGFDPWGQGILVTVSS
chain 2: DIQMTQSPSSLSASVADRVTITCRASQSIRSYLNWYQQKAGKAPKLLIYATTNLQSGVPLRFSGSGSGTDFTLTISSLQPEDFATYYCQQTYSTPLTFGGGTKVDIK
B12: BD56-157 (protein)
chain 1: QVQLVQSGAEVKKPGASVKVSCKASGYTFTNYAMHWVRQAPGQGLEWMGWINTGNGNTKYSQKFQGRVTISRDTFASIAYMELSSLRSEDTAVFYCARQGLSTVSFAETYLTYEYYFDYWGQGTLVTVSS
chain 2: QSALTQPASVSGSPGQSITISCTGTTSDVGAYDFVSWYQQHPGKAPKLMIYDVSNRPSGVSDRFSGSKSGNTASLTISGLQAEDEADYYCSSFTGSSTFVFGTGTKVTVL

Each binder was assayed against SARS-CoV-2 Omicron BA.1 spike pseudovirus (assay: pseudovirus neutralization IC50; higher = weaker neutralization).
Protocol: (§1)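 Single-round VSV luciferase pseudovirus mixed with antibody dilutions for 1 h and put on Huh-7 cells for about a day; IC50 from the dose curve.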

Point of comparison: B8, “pseudovirus neutralization IC50” value 6.62 µg/mL. Against it:
- B1 — 6600-fold lower, 0.001 µg/mL
- B2 — higher, > 10 µg/mL
- B3 — higher, > 10 µg/mL
- B4 — within 1.5-fold, 9.71 µg/mL
- B5 — higher, > 10 µg/mL
- B6 — higher, > 10 µg/mL
- B7 — higher, > 10 µg/mL
- B9 — 2.2-fold lower, 3.01 µg/mL
- B10 — higher, > 10 µg/mL
- B11 — higher, > 10 µg/mL
- B12 — higher, > 10 µg/mL

What follows are binders tested against SARS-CoV-2 Omicron BA.2 spike pseudovirus in the same assay as above.
Protocol: as §1

Point of comparison: B8, “pseudovirus neutralization IC50” value 7.51 µg/mL. Against it:
- B1 — 13000-fold lower, 0.00058 µg/mL
- B2 — higher, > 10 µg/mL
- B3 — higher, > 10 µg/mL
- B4 — 4.4-fold lower, 1.72 µg/mL
- B5 — higher, > 10 µg/mL
- B6 — higher, > 10 µg/mL
- B7 — higher, > 10 µg/mL
- B9 — 1.6-fold lower, 4.72 µg/mL
- B10 — higher, > 10 µg/mL
- B11 — higher, > 10 µg/mL
- B12 — higher, > 10 µg/mL

Each binder was assayed against SARS-CoV-2 Omicron BA.2.75 spike pseudovirus in the same assay as above.
Protocol: as §1

Point of comparison: B4, “pseudovirus neutralization IC50” value 1.85 µg/mL. Against it:
- B1 — 3000-fold lower, 0.000625 µg/mL
- B2 — higher, > 10 µg/mL
- B3 — higher, > 10 µg/mL
- B5 — higher, > 10 µg/mL
- B6 — higher, > 10 µg/mL
- B7 — higher, > 10 µg/mL
- B8 — 3.1-fold higher, 5.77 µg/mL
- B9 — 3.3-fold higher, 6.09 µg/mL
- B10 — higher, > 10 µg/mL
- B11 — higher, > 10 µg/mL
- B12 — higher, > 10 µg/mL

What follows are binders tested against SARS-CoV-2 Omicron BA.5 spike pseudovirus in the same assay as above.
Protocol: as §1

Point of comparison: B1, “pseudovirus neutralization IC50” value 1.16 µg/mL. Against it:
- B2 — higher, > 10 µg/mL
- B3 — higher, > 10 µg/mL
- B4 — 1.6-fold higher, 1.81 µg/mL
- B5 — higher, > 10 µg/mL
- B6 — higher, > 10 µg/mL
- B7 — higher, > 10 µg/mL
- B8 — 6.4-fold higher, 7.37 µg/mL
- B9 — 3.9-fold higher, 4.49 µg/mL
- B10 — higher, > 10 µg/mL
- B11 — higher, > 10 µg/mL
- B12 — higher, > 10 µg/mL

The binders below were run against SARS-CoV-2 Omicron BQ.1.1 spike pseudovirus in the same assay as above.
Protocol: as §1

Point of comparison: B1, “pseudovirus neutralization IC50” value 1.27 µg/mL. Against it:
- B2 — higher, > 10 µg/mL
- B3 — higher, > 10 µg/mL
- B4 — within 1.5-fold, 1.51 µg/mL
- B5 — higher, > 10 µg/mL
- B6 — higher, > 10 µg/mL
- B7 — higher, > 10 µg/mL
- B8 — 5.1-fold higher, 6.54 µg/mL
- B9 — 2-fold higher, 2.55 µg/mL
- B10 — higher, > 10 µg/mL
- B11 — higher, > 10 µg/mL
- B12 — higher, > 10 µg/mL

The binders below were run against SARS-CoV-2 Omicron XBB spike pseudovirus in the same assay as above.
Protocol: as §1

Point of comparison: B4, “pseudovirus neutralization IC50” value 1.5 µg/mL. Against it:
- B1 — higher, > 10 µg/mL
- B2 — higher, > 10 µg/mL
- B3 — higher, > 10 µg/mL
- B5 — higher, > 10 µg/mL
- B6 — higher, > 10 µg/mL
- B7 — higher, > 10 µg/mL
- B8 — 4.1-fold higher, 6.1 µg/mL
- B9 — 4.1-fold higher, 6.2 µg/mL
- B10 — higher, > 10 µg/mL
- B11 — higher, > 10 µg/mL
- B12 — higher, > 10 µg/mL

What follows are binders tested against SARS-CoV-2 early D614G spike pseudovirus in the same assay as above.
Protocol: as §1

Point of comparison: B4, “pseudovirus neutralization IC50” value 2.17 µg/mL. Against it:
- B1 — 630-fold lower, 0.00346 µg/mL
- B2 — higher, > 10 µg/mL
- B3 — higher, > 10 µg/mL
- B5 — higher, > 10 µg/mL
- B6 — higher, > 10 µg/mL
- B7 — higher, > 10 µg/mL
- B8 — 2.3-fold higher, 4.98 µg/mL
- B9 — higher, > 10 µg/mL
- B10 — 2.8-fold higher, 6.05 µg/mL
- B11 — higher, > 10 µg/mL
- B12 — higher, > 10 µg/mL
